Pooled drug test results. Numbers come from NIAID ChemDB, via PubChem.

Common to all: toxicity to cultured cells; cell line: Vero cells; measure: CC50

Blank or dashed fields: not listed here.

CCOC(=O)c1ccc(N2CCN(CCn3c(-c4ccc(OC(F)(F)F)cc4)nc4cc(C(=O)OCC)ccc43)CC2)c(N)c1 ; method: MTT ; value: >62.5 µg/mL
CN(C)c1cc2nc(C3CCCCC3)[nH]c2cc1NC(=O)c1ccc(OC(F)(F)F)c(F)c1F ; value: >200 µg/mL
Cc1ccc(C)n1-c1nc(-c2ccc(Cl)cc2Cl)cs1 ; method: MTT ; value: 221 µM
COc1ccc(Cn2cnc3c(-c4ccco4)nccc32)cc1 ; value: >128 µM
CCOC(=O)c1ccc(N2CCN(CCn3c(-c4ccc(C)cc4)nc4cc(C(=O)OCC)ccc43)CC2)c(N)c1 ; method: MTT ; value: >62.5 µg/mL
O=c1oc(/C=C/c2ccccc2)ns1 ; method: ATP ; value: 22 µM
O=C(CNc1cccc(Cl)c1)Sc1nnc(-c2ccncc2)o1 ; method: MTT ; value: >62.5 µg/mL
CC(C)[C@H]1CC[C@H]2[C@@H]3C=C[C@](C)(O)CC[C@]3(C)CC[C@]12C(=O)O ; method: fluorescence ; value: >624 µM
Nc1cc(O)c(C(=O)O)cc1F ; method: MTT ; value: >62.5 µg/mL
O=C(CNc1ccc([N+](=O)[O-])cc1)Sc1nnc(-c2ccncc2)o1 ; method: MTT ; value: >62.5 µg/mL
Clc1ccc2c(NCCn3cc(COc4ccc5ccccc5c4)nn3)ccnc2c1 ; method: neutral red ; value: >12 µM
CC(C)(C)NC(=O)CN(C(=O)[C@H]1CC[C@@]2(C)C3CC=C4C[C@@H](O)CC[C@]4(C)C3CC[C@]12C)c1ccccc1 ; method: crystal violet ; value: 144 µM
Cc1ccc(C)n1-c1ccc(C(=O)NN2C(=O)c3c(Br)c(Br)c(Br)c(Br)c3C2=O)cc1 ; method: MTT ; value: 251 µM
COc1cccc(-c2nsc(=O)o2)c1 ; method: ATP ; value: 11 µM
COc1cc2c(cc1/C=C/C(=O)c1ccc(Br)cc1)C1CC[C@@]3(C)C(CC[C@@H]3O)C1CC2 ; method: neutral red ; value: 79.96 µM
Cc1ccc(C)n1-c1ccc(C(=O)NN2C(=O)c3ccccc3C2=O)cc1 ; method: MTT ; value: 252 µM
COc1ccc(Cn2ccc3c(-c4ccco4)nc(Cl)cc32)cc1 ; value: 58 µM
O=c1oc(-c2cccc(F)c2)ns1 ; method: ATP ; value: 21 µM
CC1=CC[C@]2(C)CC[C@]3(C(=O)O)[C@@H](C(C)C)CC[C@H]3[C@@H]2C=C1 ; method: fluorescence ; value: 18.2 µM
O=c1oc(C#Cc2ccccc2)ns1 ; method: ATP ; value: 21 µM
COc1ccc(Nc2ncnc3c(=N)n(NC(=O)c4ccco4)cnc23)cc1 ; value: 3.56 µg/mL
Cc1cccc(NCC(=O)Sc2nnc(-c3ccncc3)o2)c1 ; method: MTT ; value: >62.5 µg/mL
CC[C@H](CC[C@@H](C)[C@H]1CCC2C3CC=C4CC(OC5O[C@H](CO)[C@@H](O)[C@H](O)[C@H]5O)CC[C@]4(C)C3CC[C@@]21C)C(C)C ; method: MTT ; value: >100 µg/mL
CCOC(=O)c1ccc(N2CCN(CCn3c(-c4ccc(Cl)cc4)nc4cc(C(=O)OCC)ccc43)CC2)c(N)c1 ; method: MTT ; value: >62.5 µg/mL
N=c1c2ncnc(Nc3ccc(F)cc3)c2ncn1NC(=O)c1ccncc1 ; value: 0.91 µg/mL
C[C@@H]1CC[C@]2(C(=O)O)CC[C@]3(C)C(CCC4[C@@]5(C)CC[C@H](O)C(C)(C)C5CC[C@]43C)C2[C@H]1C ; method: MTT ; value: 8.1 µg/mL
COc1cc2c(cc1C1CC(=O)c3cc(OC)c(OC)c(OC)c31)C1CC[C@@]3(C)C(CCC[C@@H]3OC(C)=O)C1CC2 ; method: neutral red ; value: 55.37 µM
C/C(=C\CC[C@H](C)C1CC[C@@H](C)c2c(O)cc(C)cc21)CN ; method: MTT ; value: 215 µM
CC(=O)Nn1cnc2c(Nc3ccccc3)ncnc2c1=N ; value: 44.91 µg/mL
C=Cc1ccc(C(=O)Nc2nnc(-c3ccc4c(c3)CCCC4)o2)cc1 ; method: luminescence ; value: >40 µg/mL
CCCCCCCCCC/C=C\C/C=C\CCC[C@@H](O)C(=O)N[C@@H](COC1O[C@H](CO)[C@@H](O)[C@H](O)[C@H]1O)[C@H](O)[C@H](O)C/C=C\CC/C=C/CCCCCCCCCCCCC ; method: MTT ; value: >100 µg/mL
CC(C)[C@H]1CC[C@H]2[C@@H]3C=C[C@](C)(O)CC[C@]3(C)CC[C@]12CO ; method: fluorescence ; value: >652.8 µM
O=C(NN1C(=O)c2c(Cl)c(Cl)c(Cl)c(Cl)c2C1=O)c1ccc(-n2cccc2)cc1 ; method: MTT ; value: 259 µM
O=C(Nc1nnc(-c2ccccc2Cl)o1)c1cccc(O)c1 ; method: luminescence ; value: >40 µg/mL
Cc1ccc(C)n1-c1ccc(C(=O)NN2C(=O)c3c(Cl)c(Cl)c(Cl)c(Cl)c3C2=O)cc1 ; method: MTT ; value: 252 µM
O=C(c1ccccc1)c1ccc(/C=C/c2nsc(=O)o2)cc1 ; method: ATP ; value: 16 µM
CC[C@H](/C=C/C(C)[C@H]1CCC2C3CC=C4C[C@@H](O)CC[C@]4(C)C3CC[C@@]21C)C(C)C ; method: MTT ; value: 54.97 µg/mL
COc1cc2c(cc1/C=C/C(=O)c1ccc(OC)c(OC)c1)C1CC[C@@]3(C)C(CC[C@@H]3O)C1CC2 ; method: neutral red ; value: 21.22 µM
O=C(CNc1ccccc1Cl)Sc1nnc(-c2ccncc2)o1 ; method: MTT ; value: >62.5 µg/mL

Again, the opening 3 rows:

| compound | method | value |
|---|---|---|
| CCOC(=O)c1ccc(N2CCN(CCn3c(-c4ccc(OC(F)(F)F)cc4)nc4cc(C(=O)OCC)ccc43)CC2)c(N)c1 | MTT | >62.5 µg/mL |
| CN(C)c1cc2nc(C3CCCCC3)[nH]c2cc1NC(=O)c1ccc(OC(F)(F)F)c(F)c1F | - | >200 µg/mL |
| Cc1ccc(C)n1-c1nc(-c2ccc(Cl)cc2Cl)cs1 | MTT | 221 µM |

Neighbouring rows are from separate reports. CCn is the concentration with n% toxicity to the cells.